Anti-infective test results gathered from many reports (values: NIAID ChemDB through PubChem).

Shared fields: whole-cell or culture tests; organism: Mycobacterium tuberculosis

MIC50, MIC90 and the like: level of inhibition, or share of isolates inhibited. Blank or dashed fields: not listed here. Rows are shuffled and stem from different studies. ECn: concentration that inhibits the pathogen or its effect by n%. Percent inhibition refers to the dose given; in toxicity tests it is the harm to the cells.

SMILES,read by,tested at,strain or isolate,endpoint,result
CC[C@@H](CO)NCCN[C@@H](CC)CO,-,-,CSU22,MIC,8 µg/mL
C/C(=N\NC(=O)c1ccncc1)c1ccccc1F,-,-,Ethionamide-resistant,MIC,>6.25 µg/mL
NC(=O)c1cnccn1,-,-,Isolate K10429,MIC,>500 µg/mL
CN[C@@H]1[C@H](O[C@H]2[C@H](O[C@H]3[C@H](O)[C@@H](O)[C@H](N=C(N)N)[C@@H](O)[C@@H]3N=C(N)N)O[C@@H](C)[C@]2(O)C=O)O[C@@H](CO)[C@H](O)[C@H]1O,-,-,98596,MIC,≥2 µg/mL
C/C(=N\NC(=O)c1ccncc1)c1ccc(F)cc1,-,-,Ethambutol-resistant,MIC,0.1 µg/mL
CC[C@H]1OC(=O)[C@H](C)[C@@H](O[C@H]2C[C@@](C)(OC)[C@@H](O)[C@H](C)O2)[C@H](C)[C@@H](O[C@@H]2O[C@H](C)C[C@H](N(C)C)[C@H]2O)[C@](C)(O)C[C@@H](C)CN(C)[C@H](C)[C@@H](O)[C@]1(C)O,-,-,Drug-resistant,MIC50,>8 µg/mL
CO[C@H]1/C=C/O[C@@]2(C)Oc3c(C)c(O)c4c(O)c(c(/C=N/N5CCN(C)CC5)c(O)c4c3C2=O)NC(=O)/C(C)=C\C=C\[C@H](C)[C@H](O)[C@@H](C)[C@@H](O)[C@@H](C)[C@H](OC(C)=O)[C@@H]1C,-,-,PR118,MIC,0.31 µg/mL
NNC(=O)c1ccncc1,-,-,CSU26,MIC,≤0.125 µg/mL
COc1ccccc1CCNCCNCCCCc1ccccc1,-,-,-,MIC,25 µM
c1ccc(C(CCNCCNCC23CC4CC(CC(C4)C2)C3)c2ccccc2)cc1,-,-,-,MIC,6.25 µM
O=C1CC(c2ccc(Cl)cc2)Oc2ccccc21,-,12.5 µg/mL,H37Rv,inhibition,7%
C[C@@H]1CN(c2c(F)c(N)c3c(=O)c(C(=O)O)cn(C4CC4)c3c2F)C[C@H](C)N1,-,-,CSU15,MIC,≤0.125 µg/mL
CCCNCCC(=O)Nc1ccc(C)c(Cl)c1,BACTEC,12.5 µg/mL,H37Rv,inhibition,51%
CC[C@@H](CO)NCCN[C@@H](CC)CO,broth dilution / resazurin,-,MDR12,MIC,8 µg/mL
CCCCC(CC)CN1CN(CC(CC)CCCC)CC(C)(NCCNC2CCCCC2)C1,-,-,-,MIC,12.5 µM
CO[C@H]1/C=C/O[C@@]2(C)Oc3c(C)c(O)c4c(O)c(c(/C=N/N5CCN(C)CC5)c(O)c4c3C2=O)NC(=O)/C(C)=C\C=C\[C@H](C)[C@H](O)[C@@H](C)[C@@H](O)[C@@H](C)[C@H](OC(C)=O)[C@@H]1C,-,-,TN1733,MIC,>32 µg/mL
CC(NNC(=O)c1ccncc1)c1ccc(F)cc1,-,-,H37Rv,MBC,25 µg/mL
CCCCCC(C)NCCNCCCCc1ccccc1,-,-,-,MIC,25 µM
O=C(N/N=C/c1ccccc1F)c1ccncc1,-,-,H37Rv (thiacetazone-resistant),MIC,>32 µg/mL
CC(CNCCC(c1ccccc1)c1ccccc1)NCC12CC3CC(CC(C3)C1)C2,-,-,-,MIC,6.25 µM
CO[C@H]1/C=C/O[C@@]2(C)Oc3c(C)c(O)c4c(O)c(c5c(c4c3C2=O)NC2(CCN(CC(C)C)CC2)N=5)=NC(=O)/C(C)=C\C=C\[C@H](C)[C@H](O)[C@@H](C)[C@@H](O)[C@@H](C)[C@H](OC(C)=O)[C@@H]1C,-,-,CSU25,MIC,≤0.125 µg/mL
CC(=O)NC[C@H]1CN(c2ccc(N3CCN(c4ccc([N+](=O)[O-])s4)CC3)c(F)c2)C(=O)O1,-,-,ATCC,MIC,≤0.125 µg/mL
COc1ccc(CCc2cc(OC)c3ccccc3n2)cc1OC,-,-,MT3,MIC,155 µg/mL
CCCCC(CC)CN1CN(CC(CC)CCCC)CC(C)(NCCN[C@H](CO)CCSC)C1,-,-,-,MIC,50 µM
CC(NNC(=O)c1ccncc1)c1ccc(Cl)c(Cl)c1,-,-,H37Rv (isoniazid-resistant),MIC,>31.25 µg/mL
CC[C@H]1OC(=O)[C@H](C)[C@@H](O[C@H]2C[C@@](C)(OC)[C@@H](O)[C@H](C)O2)[C@H](C)[C@@H](O[C@@H]2O[C@H](C)C[C@H](N(C)C)[C@H]2O)[C@](C)(OC)C[C@@H](C)C(=O)[C@H](C)[C@@H](O)[C@]1(C)O,-,-,ATCC 35830,MIC,>8 µg/mL
O=C1CC(c2ccc(O)c(O)c2)Oc2c1c(O)cc(O[C@@H]1O[C@H](CO)[C@@H](O)[C@H](O)[C@H]1O)c2C1C(=O)c2c(O)cc(O)cc2OC1c1ccc(O)cc1,-,12.5 µg/mL,-,inhibition,0%
CC(C)c1ccc2c(c1)CC[C@H]1[C@](C)(CNCCNCc3ccc(C(F)(F)F)cc3)CCC[C@]21C,-,-,-,MIC,25 µM
CN1c2ccccc2CCC1CCc1ccc2c(c1)OCO2,-,-,MT4,MIC,>339 µg/mL
c1ccc2c(c1)CC(NCCNC1CCCCCCC1)C2,-,-,-,MIC,25 µM
CC(C)=CCC/C(C)=C/CNCCNC12CC3CC(CC(C3)C1)C2,-,-,-,MIC,12.5 µM
c1ccc(CCCNCCNCC(c2ccccc2)c2ccccc2)cc1,-,-,-,MIC,37.5 µM
CC(C)c1ccc2c(c1)CC[C@H]1[C@](C)(CNCCNCc3ccc4c(c3)OCO4)CCC[C@]21C,-,-,-,MIC,12.5 µM
CO[C@H]1/C=C/O[C@@]2(C)Oc3c(C)c(O)c4c(O)c(c(/C=N/N5CCN(C)CC5)c(O)c4c3C2=O)NC(=O)/C(C)=C\C=C\[C@H](C)[C@H](O)[C@@H](C)[C@@H](O)[C@@H](C)[C@H](OC(C)=O)[C@@H]1C,-,-,10S,MIC,1 µg/mL
O=C(N/N=C/c1cccc(C(F)(F)F)c1)c1ccncc1,-,-,Isoniazid-resistant,MBC,>3.2 µg/mL
Nc1ncccc1/C=C/C(=O)c1ccc2c(ccc3ccccc32)c1,-,-,H37Rv,EC50,<12.5 µg/mL
COc1ccc(CNCCNCCc2ccccc2Cl)c(OC)c1,-,-,-,MIC,50 µM
COc1ccccc1CCNCCNC/C=C(\C)CCC=C(C)C,-,-,-,MIC,50 µM
CCOCCCNCCNCCC(c1ccccc1)c1ccccc1,-,-,-,MIC,25 µM
NNC(=O)c1ccncc1,-,-,8S,MIC,0.1 µg/mL
NC1CCN(c2c(F)cc3c(=O)c(C(=O)O)cn(C4CC4)c3c2Cl)C1,-,-,ATCC 35827,MBC,0.125 µg/mL
NNC(=O)c1ccncc1,-,-,9120,MIC,≥0.2 µg/mL
CCOCCCNCCNCCC(c1ccccc1)c1ccccc1,-,-,-,MIC,25 µM
CC(CNCCC(c1ccccc1)c1ccccc1)NC[C@@H]1CC[C@H]2C[C@@H]1C2(C)C,-,-,-,MIC,12.5 µM
C[C@@H]1CN(c2c(F)c(N)c3c(=O)c(C(=O)O)cn(C4CC4)c3c2F)C[C@H](C)N1,-,-,ATCC 35827,MBC,0.06 µg/mL
CCCCC(CC)CN1CN(CC(CC)CCCC)CC(C)(NCCNCC(c2ccccc2)c2ccccc2)C1,-,-,-,MIC,25 µM
CC1CN(c2cc3c(cc2F)c(=O)c(C(=O)O)cn3-c2ccc(F)cc2F)CCN1,-,-,ATCC 35828,MBC,2 µg/mL

4 of the rows above, restated:

SMILES | read by | tested at | strain or isolate | endpoint | result
CCCNCCC(=O)Nc1ccc(C)c(Cl)c1 | BACTEC | 12.5 µg/mL | H37Rv | inhibition | 51%
CO[C@H]1/C=C/O[C@@]2(C)Oc3c(C)c(O)c4c(O)c(c5c(c4c3C2=O)NC2(CCN(CC(C)C)CC2)N=5)=NC(=O)/C(C)=C\C=C\[C@H](C)[C@H](O)[C@@H](C)[C@@H](O)[C@@H](C)[C@H](OC(C)=O)[C@@H]1C | - | - | CSU25 | MIC | ≤0.125 µg/mL
CC[C@H]1OC(=O)[C@H](C)[C@@H](O[C@H]2C[C@@](C)(OC)[C@@H](O)[C@H](C)O2)[C@H](C)[C@@H](O[C@@H]2O[C@H](C)C[C@H](N(C)C)[C@H]2O)[C@](C)(O)C[C@@H](C)CN(C)[C@H](C)[C@@H](O)[C@]1(C)O | - | - | Drug-resistant | MIC50 | >8 µg/mL
O=C1CC(c2ccc(Cl)cc2)Oc2ccccc21 | - | 12.5 µg/mL | H37Rv | inhibition | 7%